A mixed list of measured activities; the numbers were collected in NIAID ChemDB.

Shared fields: enzyme or target tests

Percent inhibition refers to the dose given; in toxicity tests it is the harm to the cells. An empty or dashed field is not shown. Conditions beyond the fields shown may differ between rows. ICn is the concentration giving n% inhibition. Two numbers with a dash give a range or band.

| structure | measure | target | agent | tested at | result |
|---|---|---|---|---|---|
| COc1ccc(-c2ccccc2)c(-c2ccc3cc(-c4nc5cc(C(=O)O)ccc5n4C4CCCCC4)ccc3n2)c1 | inhibition | NS5B polymerase | Hepatitis C virus | 33 µM | 101% |
| O=C(O)c1sc(-c2ccccc2)cc1N(Cc1ccccc1)C(=O)c1ccc(Cl)cc1Cl | IC50 | NS3 ATPase | Hepatitis C virus |  | <5 µM |
| CNC(=O)c1c(-c2ccc(F)cc2)oc2cc(-c3ncc[nH]3)c(OC(C)C)cc12 | IC50 | Nonstructural protein 5B | Hepatitis C virus |  | ≤0.5 µM |
| O=C(c1ccc2c(c1)nc(-c1cc3ccc(-c4ccccc4-c4ccccc4)nc3cc1F)n2C1CCCCC1)N1CCC(O)CC1 | inhibition | NS5B polymerase | Hepatitis C virus | 100 µM | 88.64% |
| O=S1(=O)CCC(c2c(-c3ccc(OCc4ccccc4)cc3)cnc3c(-c4nn[nH]n4)cnn23)CC1 | IC50 | RNA-dependent RNA polymerase | Hepatitis C virus |  | >10 µM |
| CNC(=O)c1c(-c2ccccc2)oc2ccc(OCC(F)(F)F)cc12 | IC50 | Nonstructural protein 5B | Hepatitis C virus |  | >30 µM |
| O=C(O)c1c[nH]n2c(=O)c(CC3CCC3)c(-c3ccc(OCc4ccccc4)cc3)nc12 | IC50 | RNA-dependent RNA polymerase | Hepatitis C virus |  | 1–10 µM |
| CC(C)NC1=NC(NC(C)C)N(CN)C(Nc2ccc3cn[nH]c3c2)=N1 | inhibition | DNA polymerase | Hepatitis B virus | 1 µg/mL | 77% |
| CNC(=O)c1c(-c2ccc(F)cc2F)oc2cc(-c3c(C)noc3C)c(OC)cc12 | IC50 | Nonstructural protein 5B | Hepatitis C virus |  | ≤0.5 µM |
| COc1cc(F)cc(-c2cc(-c3ccc(C(F)(F)F)cc3)nc3cc(C(=O)O)nn23)c1 | IC50 | RNA-dependent RNA polymerase | Hepatitis C virus |  | >10 µM |
| O=C(O)c1ccc2c(c1)nc(-c1ccc3nc(-c4cc(OCC(=O)N5CCCC5)ccc4-c4ccc(Cl)cc4)ccc3c1)n2C1CCCCC1 | inhibition | NS5B polymerase | Hepatitis C virus | 33 µM | 97.42% |
| COc1ccc(-c2cnc3c(C(=O)O)cnn3c2-c2ccc(OC)cc2)cc1 | IC50 | RNA-dependent RNA polymerase | Hepatitis C virus |  | >10 µM |
| O=C(NCc1ccccc1Br)Nc1ccsc1-c1nc(C(=O)O)c(O)c(=O)[nH]1 | IC50 | HCV polymerase | Hepatitis C virus |  | <25 µM |
| COCCOc1cccc(-c2ccc3cc(-c4nc5cc(C(=O)O)ccc5n4C4CCCCC4)ccc3n2)c1 | inhibition | NS5B polymerase | Hepatitis C virus | 100 µM | 99.64% |
| CCCC(=O)N(Cc1ccc(C(F)(F)F)cc1)c1cc(-c2ccccc2)sc1C(=O)O | IC50 | NS3 ATPase | Hepatitis C virus |  | 5–20 µM |
| Cc1onc(-c2ccc(Cl)cc2)c1-c1ccc2cc(-c3nc4cc(C(=O)O)ccc4n3C3CCCCC3)ccc2n1 | inhibition | NS5B polymerase | Hepatitis C virus | 33 µM | 100% |
| COc1nc(NCCCN2CCOCC2)nc(Nc2ccc3[nH]ncc3c2)n1 | inhibition | Nonstructural protein 5B | Hepatitis C virus | 10 µg/mL | 45% |
| CC[C@H](NC(=O)[C@H](CC(C)C)NC(=O)[C@@H](NC(=O)[C@@H](NC(=O)c1cnccn1)C(C)C)C(C)C)C(=O)C(=O)NCCc1ccccc1 | Ki | NS3 protease | Hepatitis C virus |  | 1–100 µM |
| COc1nc(Nc2ccc3[nH]ncc3c2)nc(N2CCN(C)CC2)n1 | IC50 | DNA polymerase | Hepatitis B virus |  | 0.1–1 µg/mL |
| CNC(=O)c1ccc(-c2ccccc2)c(-c2ccc3cc(-c4nc5cc(C(=O)O)ccc5n4C4CCCCC4)ccc3n2)c1 | inhibition | NS5B polymerase | Hepatitis C virus | 100 µM | 98.43% |
| CC[C@@H](C=O)NC(=O)[C@@H]1C[C@@H](OCc2ccccc2)CN1C(=O)[C@@H](NC(=O)c1cccc(C)c1O)C(C)C | Ki | NS3 protease | Hepatitis C virus |  | >100 µM |
| COc1nc(NCCCN2CCOCC2)nc(Nc2ccc3cn[nH]c3c2)n1 | inhibition | DNA polymerase | Hepatitis B virus | 1 µg/mL | 83% |
| CC[C@@H](C=O)NC(=O)[C@@H]1C[C@@H](OCc2ccccc2)CN1C(=O)[C@@H](NC(=O)c1cnn(-c2ccccc2)c1C)C(C)C | Ki | NS3 protease | Hepatitis C virus |  | >100 µM |
| CC(NC(=O)Nc1cscc1-c1nc(C(=O)O)c(O)c(=O)[nH]1)c1cscn1 | IC50 | HCV polymerase | Hepatitis C virus |  | <25 µM |
| CN(C(=O)c1ccc(C(C)(C)C)cc1)c1cc(-c2ccccc2)sc1C(=O)O | IC50 | NS3 ATPase | Hepatitis C virus |  | 5–20 µM |
| COc1nc(Nc2ccc3cn[nH]c3c2)nc(N2CCC(O)CC2)n1 | inhibition | Nonstructural protein 5B | Hepatitis C virus | 0.1 µg/mL | 10% |
| CCOC(=O)c1c(C)[nH]c(C)c1S(=O)(=O)Nc1cc(-c2ccccc2)sc1C(=O)O | IC50 | NS3 ATPase | Hepatitis C virus |  | 5–20 µM |
| N[C@H](COC(=O)Nc1ccsc1-c1nc(C(=O)O)c(O)c(=O)[nH]1)c1ccccc1 | IC50 | HCV polymerase | Hepatitis C virus |  | <25 µM |
| COCCNc1nc(Nc2ccc3[nH]ncc3c2)nc(OC)n1 | IC50 | DNA polymerase | Hepatitis B virus |  | 0.1–1 µg/mL |
| CC(Cc1ccc(O)cc1)(NC(=O)c1cnn2c(C3CCCCC3)c(-c3ccc(F)cc3)cnc12)C(=O)O | IC50 | RNA-dependent RNA polymerase | Hepatitis C virus |  | <1 µM |
| COc1ccc(-c2ccc(Cl)cc2)c(-c2ccc3cc(-c4nc5cc(C(=O)O)ccc5n4C4CC4)ccc3n2)c1 | inhibition | NS5B polymerase | Hepatitis C virus | 100 µM | 101% |
| O=C(Cc1csc2ccccc12)Nc1ccsc1-c1nc(C(=O)O)c(O)c(=O)[nH]1 | IC50 | HCV polymerase | Hepatitis C virus |  | <25 µM |
| CNC(=O)c1c(-c2ccc(F)cc2)oc2cc(C3(C)CNC(=O)O3)c(OC(C)C)cc12 | IC50 | Nonstructural protein 5B | Hepatitis C virus |  | ≤0.5 µM |
| O=C(O)c1cc2nc(-c3ccc(C(F)(F)F)cc3)cc(-c3ccc(Oc4ccccc4)cc3)n2n1 | IC50 | RNA-dependent RNA polymerase | Hepatitis C virus |  | 1–10 µM |
| COCC(=O)N(Cc1ccc(F)cc1F)c1cc(-c2ccccc2)sc1C(=O)O | IC50 | NS3 ATPase | Hepatitis C virus |  | 5–20 µM |
| CCOC(=O)C1=CN(N2CCN(c3nc(Nc4ccc5[nH]ncc5c4)nc(OC)n3)CC2)C(SC)N=C1 | inhibition | Nonstructural protein 5B | Hepatitis C virus | 10 µg/mL | 49% |
| O=C(Cc1ccc2c(c1)OCO2)Nc1cscc1-c1nc(C(=O)O)c(O)c(=O)[nH]1 | IC50 | HCV polymerase | Hepatitis C virus |  | <25 µM |
| O=C(O)c1ccc2c(c1)nc(-c1ccc3nc(-c4ccc(N5CCNCC5)cc4)ccc3c1)n2C1CCCCC1 | inhibition | NS5B polymerase | Hepatitis C virus | 33 µM | 91.81% |
| O=C(Nc1ccsc1-c1nc(C(=O)O)c(O)c(=O)[nH]1)OCC(c1ccccc1)c1ccccc1 | IC50 | HCV polymerase | Hepatitis C virus |  | <25 µM |
| CC[C@@H](C=O)NC(=O)[C@@H]1C[C@@H](OCc2ccccc2)CN1C(=O)[C@@H](NC(=O)c1cccc(OC)c1OC)C(C)C | Ki | NS3 protease | Hepatitis C virus |  | >100 µM |
| O=C(O)c1cc2ncc(-c3ccccc3)c(-c3ccc(OCc4ccccc4)cc3)n2n1 | IC50 | RNA-dependent RNA polymerase | Hepatitis C virus |  | >10 µM |
| O=C(Cc1ccccc1Cl)Nc1cscc1-c1nc(C(=O)O)c(O)c(=O)[nH]1 | IC50 | HCV polymerase | Hepatitis C virus |  | <25 µM |

For reference, 2 entries again:

structure | measure | target | agent | tested at | result
COc1ccc(-c2cnc3c(C(=O)O)cnn3c2-c2ccc(OC)cc2)cc1 | IC50 | RNA-dependent RNA polymerase | Hepatitis C virus |  | >10 µM
CC[C@@H](C=O)NC(=O)[C@@H]1C[C@@H](OCc2ccccc2)CN1C(=O)[C@@H](NC(=O)c1cccc(OC)c1OC)C(C)C | Ki | NS3 protease | Hepatitis C virus |  | >100 µM